These results are taken from the supplement of paper PMC9931576.

Changes are numbered by the printed parent chain. Human monoclonal antibodies against the spike receptor-binding domain (heavy:light variable regions). IC50 against pseudoviruses bearing the spike of naturally observed variants; lower = stronger; >10 µg/ml means not reached at the top dose. No active / inactive call. The stated detection limit is 0.0005 µg/ml; values near or below 0.001 µg/ml lie at the floor of the assay.

To fix the notation:
B1: BD57-0210 (protein)
chain 1: EVQLVESGGGLVQPGGSLRLSCAVSGFTVSSNFMTWVRQAPGKGLEWVSLIHSGGSTFYADSVKGRFTISRHTSKNTVYLQMNTLGAEDTAVYYCARSEWLRGAFDLWGQGTMVTVSS
chain 2: NFMLTQPHSVSESPGKTVTISCTGSSGSIASNYVQWYQQRPGSAPTNLIYEDNQRPSGVPDRFSGSIDSSSNSASLTISGLKTEDEADYYCQSYDGNNLKWVFGGGTKLTVL
B2: BD57-0220 (protein)
chain 1: QVQLLQSGAEVKKPGASVRVSCKASGYSFSNFYIHWVRQAPGQGLQWMGIINPGGDSTSYAKKFQGRIIMASDTSTSTVYMDLSGLRSADTAVYYCARGGIVPAATQDFDYWGQGTLVTVSS
chain 2: EIVLTQSPATLSLSPGERATLSCRASQSVGNYLGWYQQKPGQAPRLLIYDASNRATGVPARFSGSGSGTDFTLTISRLEPEDFAVYFCLQRGNWPREEFTFGPGTKVDIK
B3: BD57-0211 (protein)
chain 1: QITLKESGPTLVKPTQTLTLTCSFSGFSLATDGVGVGWFRQPPGKAPEWLALIYWNDDHHYSPSLKTRLTITKDTSKNQVVLKLTNMDPVDTGTYYCAHTYDFWSGYSGGWGQGILVTVSS
chain 2: DIQMTQSPSSLSASVGDRITITCRASQPISSYLNWFQQKPGKAPKLLIYAAFNFQSGVPSRFSGSGSGTDFTLTINSLQPEDFATYYCQQTYSFPWTFGQGTKVEIK
B4: BD57-0223 (protein)
chain 1: EVQLVESGGGLVKPGGSLRLSCAASGFTFSNAWLSWVRQAPGKGLEWVGRIKSKIDGETTDYAAPVKGRITMSRDDSKNTLYLQMNSLKTEDTAMYYCTTESSLYSSSGYYSDGFGDWYFDLWGRGTLVTVSS
chain 2: QSALTQPRSVSGSPGQSVTISCTGTSSDVGGYNYVSWYQQHPGKAPKLMIYDVTERPSGVPDRFSGSKSGNTASLTISGLQAEDEADYYCCSYAGIYTLYVFGTGTKVTVL
B5: BD57-0187 (protein)
chain 1: QVQLVESGGGVVQPGRSLRLSCAASGFTFSSYAMHWVRQAPGKGLEWVAVLSYAGSHIYYADSVKGRFTISRDNSKNTLYLQMKSLRAEDTAVYYCARDSGDGIIGTTGWFGPWGQGTLVTVSA
chain 2: SYVLTQPPSVSVAPGQTARIPCEENNIGSKSVHWYQQKPGQAPVLVVYDDSDRPSGIPERFSGSNSGNTATLTINRVEAGDEADYYCQVWDGSSDPFVFGSGTKVTVL
B6: BD57-0190 (protein)
chain 1: QVQLVESGGGVVQPGRSLRLSCAASGFTFSTYAMHWVRQAPGKGLEWVATISYDGGSKFYADSVKGRFTISRDNSKNTLYLQMNSLRAEDTAVYYCAREMIVMLIITGPFDYWGQGTLVTVSS
chain 2: DIQMTQSPSSLSASVGDRVTITCRASQSISNYLNWYQQKPGKAPNLLIYDASSLQSGVPSRFSGSGSGTDFTLTISSLQPEDFATYYCQQSYSSPPLTFGGGTKVEIK
B7: BD57-0209 (protein)
chain 1: EVQLLESGGGLVQPGGSLRLSCAASGFTFSSYAMTWVRQAPGKGLEWVSSISRSGDITTYADSVKGRFSFSRDNSKNTLFLQMNSLRAEDTAIYYCAKDSDLDRNVEVWDYWGQGTLVTVSS
chain 2: B6 chain 2 with S30R, N31Y, D50G, Q55K, P80R, S94T, L97Y, G101Q, V105L
B8: BD57-0188 (protein)
chain 1: EVLLVESGGGLVQPGRSLRLSCVASGFIFDDYGMHWVRQAPGKGLEWVSGISWNGDSKAYADSVKGRFTVSRDDAKNSLYLQMNSLRPEDTAVYYCAKVASTTWFYRGWFDYWGQGTLVTVAP
chain 2: EIVLTQSPGTLSLSPGERATLSCRASQSVSGSYLAWYQRKPGQAPRLLIYGASSRATDIPDRFSGSGSGADFTLIISRLEPEDFAVYYCQQYGNSPLTFGGGTKVEIK
B9: BD57-0178 (protein)
chain 1: QVQLVQSGAEMKKPGSSVKVSCKASGGPFSSYSISWVRQAPGQGLEWMGGIIPILGTTNYAQKFQGRVRITADDSTSTAYMELSSLRSNDTAVYYCATPFRGAAGAYYYYYMDVWGKGTTVIVSS
chain 2: DIQMTQSPSSLSASVGDRVTITCQASQGISNFLNWYQQRPGKAPKLLIYDASNLETGVPSRFSGSGSGTYFTLTISSLQPEDFATYYCQQYDNVRLNFGGGTKVDIK
B10: BD57-0215 (protein)
chain 1: QDHLVQSGAEVRRPGSSVKVSCKSSGGTFISYAITWVRQAPGQGLEWMGRIIPIVGIPDYAQKFQGRVTINADKSTNTAYMELSSLRSDDTAVYYCARGRHDRSGDYLRRGGSGKYFDLWGRGTLVTVSS
chain 2: DIQMTQSPSSLSASVGDRVTITCQASQDISNYLNWYQQKPGEAPKLLIYDASSLETGVPSRFSGSGSGTDFTLTISSLQPEDIATYYCQQFDDLPPITFGQGTRLEIK
B11: BD57-0214 (protein)
chain 1: QVQLVQSGAEVKRPGASVEVSCKASGYTFTNYYIHWVRQAPGQGLEWMGIINPGGGSTMSAQTFQGRVTMTRDTSTTTVYMELNSLRSDDTAIYYCARGSQSFACSGSICDEKYDYYGMDVWGQGTTVTVSS
chain 2: DIVMTQSPLSLPVTPGEPAAISCRSSQSLLHSSGFNYLDWYLQRPGQPPQLLIFLGSNRASGVPDRFSGSGSGTDFTLKISRVEAEDVGVYYCMQALQPPQITFGQGTRLDIK
B12: BD57-0193 (protein)
chain 1: EVQLVQSGPEVKKPGESLKISCKGSGYIFTNYWIGWVRQMPGKGLEWMGIIYPGDSDTKYSPSFQGQVTFSVDESISTAYLQWSSLKASDTAIYYCARHLVPYYYDSSGYSEFDFWGQGTLVTVSS
chain 2: EIVLTQSPGTLSLSPGERATLSCRASQGISSDYLAWYQQKPGQAPRLLIYGASSRATGIPDRFSGGGSGTDFTLTISRLEREDFAVYHCQQYGYSPLTFGGGTKLEIK

The target of one assay is SARS-CoV-2 Omicron BA.1 spike pseudovirus. The experiment in a line: pseudovirus neutralization IC50; higher = weaker neutralization. The protocol:
(§1)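 Single-round VSV luciferase pseudovirus mixed with antibody dilutions for 1 h and put on Huh-7 cells for about a day; IC50 from the dose curve.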
Take B1: the “pseudovirus neutralization IC50” value was 1.31 µg/mL.

On to B2, for which the “pseudovirus neutralization IC50” value is > 10 µg/mL.

On to B3, for which the “pseudovirus neutralization IC50” value was determined as 1.81 µg/mL.

B4: the “pseudovirus neutralization IC50” value was found to be 0.0308 µg/mL.

Turning to B5, the “pseudovirus neutralization IC50” value is 2.65 µg/mL.

B6: the “pseudovirus neutralization IC50” value was > 10 µg/mL.

Regarding B7, the “pseudovirus neutralization IC50” value is > 10 µg/mL.

For the molecule B8, the “pseudovirus neutralization IC50” value is > 10 µg/mL.

B9: the “pseudovirus neutralization IC50” value stood at 2.08 µg/mL.

Regarding B10, the “pseudovirus neutralization IC50” value was > 10 µg/mL.

Take B11: the “pseudovirus neutralization IC50” value is 0.997 µg/mL.

For B12, the “pseudovirus neutralization IC50” value stood at 3.83 µg/mL.

The target of the next assay is SARS-CoV-2 Omicron BA.2 spike pseudovirus. Described as above. The protocol:
as §1
As to B1, the “pseudovirus neutralization IC50” value amounted to 1.85 µg/mL.

On to B2, for which the “pseudovirus neutralization IC50” value is > 10 µg/mL.

For B3, the “pseudovirus neutralization IC50” value is 2.74 µg/mL.

As to B4, the “pseudovirus neutralization IC50” value was 0.0216 µg/mL.

For B5, the “pseudovirus neutralization IC50” value amounted to 2.76 µg/mL.

For B6, the “pseudovirus neutralization IC50” value is > 10 µg/mL.

As to B7, the “pseudovirus neutralization IC50” value was > 10 µg/mL.

As for B8, the “pseudovirus neutralization IC50” value was > 10 µg/mL.

Take B9: the “pseudovirus neutralization IC50” value amounted to 3.87 µg/mL.

Regarding B10, the “pseudovirus neutralization IC50” value was determined as 0.00169 µg/mL.

On to B11, for which the “pseudovirus neutralization IC50” value turned out to be 1.66 µg/mL.

For B12, the “pseudovirus neutralization IC50” value was 3.9 µg/mL.

In the next assay the target is SARS-CoV-2 Omicron BA.2.75 spike pseudovirus. The assay is described as above. The protocol: as §1
As for B1, the “pseudovirus neutralization IC50” value worked out at 2.55 µg/mL.

As for B2, the “pseudovirus neutralization IC50” value was > 10 µg/mL.

With B3, the “pseudovirus neutralization IC50” value turned out to be 1.45 µg/mL.

Consider B4, for which the “pseudovirus neutralization IC50” value amounted to 0.027 µg/mL.

Regarding B5, the “pseudovirus neutralization IC50” value came to 3.33 µg/mL.

In the case of B6, the “pseudovirus neutralization IC50” value was > 10 µg/mL.

Take B7: the “pseudovirus neutralization IC50” value was > 10 µg/mL.

Consider B8, for which the “pseudovirus neutralization IC50” value was > 10 µg/mL.

As for B9, the “pseudovirus neutralization IC50” value worked out at 2.98 µg/mL.

Take B10: the “pseudovirus neutralization IC50” value is > 10 µg/mL.

Turning to B11, the “pseudovirus neutralization IC50” value is 2 µg/mL.

For the molecule B12, the “pseudovirus neutralization IC50” value was determined as 4.1 µg/mL.

The target in another assay is SARS-CoV-2 Omicron BA.5 spike pseudovirus. The assay is described as above. The protocol:
as §1
With B1, the “pseudovirus neutralization IC50” value came out at 1.65 µg/mL.

With B2, the “pseudovirus neutralization IC50” value was > 10 µg/mL.

As for B3, the “pseudovirus neutralization IC50” value is 3.39 µg/mL.

With B4, the “pseudovirus neutralization IC50” value was determined as 0.122 µg/mL.

As to B5, the “pseudovirus neutralization IC50” value was 2.76 µg/mL.

B6: the “pseudovirus neutralization IC50” value was > 10 µg/mL.

With B7, the “pseudovirus neutralization IC50” value was > 10 µg/mL.

In the case of B8, the “pseudovirus neutralization IC50” value is > 10 µg/mL.

Regarding B9, the “pseudovirus neutralization IC50” value stood at 4.63 µg/mL.

Take B10: the “pseudovirus neutralization IC50” value amounted to 3.78 µg/mL.

Turning to B11, the “pseudovirus neutralization IC50” value amounted to 1.92 µg/mL.

Consider B12, for which the “pseudovirus neutralization IC50” value amounted to 3.97 µg/mL.

The target of another assay is SARS-CoV-2 Omicron BQ.1.1 spike pseudovirus. The description is as above. The protocol: as §1
B1: the “pseudovirus neutralization IC50” value turned out to be 2.65 µg/mL.

For B2, the “pseudovirus neutralization IC50” value was > 10 µg/mL.

With B3, the “pseudovirus neutralization IC50” value was determined as 3.44 µg/mL.

For the molecule B4, the “pseudovirus neutralization IC50” value was > 10 µg/mL.

Turning to B5, the “pseudovirus neutralization IC50” value was > 10 µg/mL.

On to B6, for which the “pseudovirus neutralization IC50” value was > 10 µg/mL.

With B7, the “pseudovirus neutralization IC50” value is > 10 µg/mL.

For B8, the “pseudovirus neutralization IC50” value is > 10 µg/mL.

Consider B9, for which the “pseudovirus neutralization IC50” value is 7.71 µg/mL.

On to B10, for which the “pseudovirus neutralization IC50” value was > 10 µg/mL.

Take B11: the “pseudovirus neutralization IC50” value amounted to 3.7 µg/mL.

B12: the “pseudovirus neutralization IC50” value was > 10 µg/mL.

A further assay concerns the target SARS-CoV-2 Omicron XBB spike pseudovirus. Described as above. The protocol: as §1
As to B1, the “pseudovirus neutralization IC50” value worked out at 2.61 µg/mL.

B2: the “pseudovirus neutralization IC50” value was > 10 µg/mL.

As to B3, the “pseudovirus neutralization IC50” value came to 2.85 µg/mL.

For B4, the “pseudovirus neutralization IC50” value is 8.79 µg/mL.

On to B5, for which the “pseudovirus neutralization IC50” value came to 2.13 µg/mL.

For the molecule B6, the “pseudovirus neutralization IC50” value is > 10 µg/mL.

For the molecule B7, the “pseudovirus neutralization IC50” value is > 10 µg/mL.

In the case of B8, the “pseudovirus neutralization IC50” value is > 10 µg/mL.

B9: the “pseudovirus neutralization IC50” value stood at 2.55 µg/mL.

On to B10, for which the “pseudovirus neutralization IC50” value is > 10 µg/mL.

For the molecule B11, the “pseudovirus neutralization IC50” value worked out at 3.71 µg/mL.

Take B12: the “pseudovirus neutralization IC50” value stood at 3.56 µg/mL.

The next assay deals with SARS-CoV-2 early D614G spike pseudovirus. The assay is described as above. The protocol:
as §1
Regarding B1, the “pseudovirus neutralization IC50” value turned out to be 0.197 µg/mL.

In the case of B2, the “pseudovirus neutralization IC50” value was > 10 µg/mL.

Regarding B3, the “pseudovirus neutralization IC50” value came to 1.84 µg/mL.

For B4, the “pseudovirus neutralization IC50” value came out at 0.0142 µg/mL.

In the case of B5, the “pseudovirus neutralization IC50” value is > 10 µg/mL.

Turning to B6, the “pseudovirus neutralization IC50” value is > 10 µg/mL.

As to B7, the “pseudovirus neutralization IC50” value was > 10 µg/mL.

For the molecule B8, the “pseudovirus neutralization IC50” value was > 10 µg/mL.

In the case of B9, the “pseudovirus neutralization IC50” value was found to be 4.99 µg/mL.

In the case of B10, the “pseudovirus neutralization IC50” value was 0.000487 µg/mL.

Regarding B11, the “pseudovirus neutralization IC50” value was found to be 5.18 µg/mL.

For B12, the “pseudovirus neutralization IC50” value was > 10 µg/mL.
